Data taken from ChEMBL document CHEMBL3091338, “Secoemestrin D, a cytotoxic epitetrathiodioxopiperizine, and emericellenes A-E, five sesterterpenoids from Emericella sp. AST0036, a fungal endophyte of Astragalus lentiginosus1” (J Nat Prod, 2013).

Tested on: A549
Assay: Selectivity for human HepG2 cells over human A549 cells

Compound `COc1cc2c(c3oc4cccc(O)c4c(=O)c13)[C@@H]1C=CO[C@@H]1O2` [STERIGMATOCYSTIN] has a Selectivity ratio of 80.
